Measured values from several laboratories, pooled; numbers as filed in NIAID ChemDB.

Shared fields: host cell toxicity; measure: CC50

CCn: concentration that lowers growth or viability of the cells by n%. An empty or dashed field is not shown. Rows are shuffled and stem from different studies.

| SMILES | cell line | read by | result |
|---|---|---|---|
| CCOC(=O)[C@@]1(C)CC[C@]2(C)CC[C@]3(C)C(=CC(=O)[C@@H]4[C@@]5(C)CC/C(=N\OCc6cc(Br)cc(Br)c6)C(C)(C)[C@@H]5CC[C@]43C)[C@@H]2C1 | CT26 | MTT | 74.86 µM |
| NN1CC[N+]2(CC1)CC[N+]1(CCN(N)CC1)CC2 | K562 |  | 187 µg/mL |
| COC(=O)N[C@H](C(=O)NC(C)(C)CCC[C@@H](CO)N(CCCF)S(=O)(=O)c1ccc(N)cc1)C(c1ccccc1)c1ccccc1 | T lymphoid cells | microscopy | >10 µM |
| CN1CCn2c(nc(C(=O)NCc3ccc(F)cc3)c(O)c2=O)C(NCC2CCCCC2)C1 | MT-4 | microscopy | >1 µM |
| Cc1ccc(-n2ncc3c(NC(=O)Nc4cccc(Cl)c4Cl)ncnc32)c(C)c1 | HUH 9B |  | 15 µM |
| CC[C@@H](CCC[C@@H](CO)N(C(C)C)S(=O)(=O)c1ccc(CO)cc1)NC(=O)[C@@H](NC(=O)OC)C(c1ccccc1)c1ccccc1 | T lymphoid cells | microscopy | >10 µM |
| Cc1ccc(-n2ncc3c(Nc4cccc(F)c4)ncnc32)c(C)c1 | HUH 9B |  | 46 µM |
| O=c1c2ncn(COC(CO)CO)c2nc2[nH]c(-c3ccc(F)cc3)cn12 | OST TK-/HSV-1 TK+ |  | 0.0032 µg/mL |
| COC(=O)N[C@H](C(=O)N[C@H](CCC[C@@H](CO)N(CCC(C)C)S(=O)(=O)c1ccc(CO)cc1)C(C)C)C(c1ccccc1)c1ccccc1 | T lymphoid cells | microscopy | >10 µM |
| Cc1ccc(NC(=O)Nc2ncnc3c2cnn3-c2ccc(C)cc2C)cc1 | HUH 9B |  | 38 µM |
| CCn1c(-c2ccccn2)cc(=O)c2cc(C(C)C)ccc21 | HELA-OHIO | MTT | 68 µg/mL |
| COc1ccnc2[nH]cc(C(=O)C(=O)N3CCN(C(=O)c4ccccc4)C[C@H]3C)c12 | HeLa | trypan blue | >100 µM |
| CCCN(Cc1cccc(OCCCCCC(=O)OCC)c1)C(=O)c1ccc(Br)cc1 | RAJI |  | >20 µM |
| CNC(=O)c1ncc(OC)c2c(C(=O)C(=O)N3CCN(C(=O)c4ccccc4)CC3)c[nH]c12 | HeLa | trypan blue | >100 µM |
| CN(C(=O)NCCc1ccc2c(n1)NCCC2)c1cccc(F)c1 | PBMC |  | 50 µM |
| Cc1ncn(-c2ncc(F)c3c(C(=O)C(=O)N4CCN(C(=O)c5ccccc5)[C@H](C)C4)c[nH]c23)n1 | HeLa | trypan blue | >100 µM |
| COC(=O)N[C@H](C(=O)N[C@H](C)CCC[C@@H](CO)N(CCC(C)C)S(=O)(=O)c1ccc(CO)cc1)C(c1ccccc1)c1ccccc1 | T lymphoid cells | microscopy | >10 µM |
| Cc1ccc(-n2ncc3c(Nc4ccc(-c5cnco5)cc4)ncnc32)c(C)c1 | HUH 9B |  | 26 µM |
| CC(C)C[C@@H]1NC(=O)[C@H](Cc2c[nH]c3ccccc23)NC(=O)[C@@H](CC2CCCCC2)NC(=O)[C@H](CCCCN)NC(=O)[C@H](C(C)C)NC(=O)[C@@H](CC(C)C)NC1=O | Colorectal carcinoma | MTT | >30 µM |
| CN[C@H](C(=O)N[C@H](CCC[C@@H](CO)N(CC(C)C)S(=O)(=O)c1ccc(CO)cc1)C1CC1)C(c1ccccc1)c1ccccc1 | T lymphoid cells | microscopy | >10 µM |
| CN(CC1c2nc(C(=O)NCc3ccc(F)cc3)c(O)c(=O)n2CCN1C)C(=O)CS(C)(=O)=O | MT-4 | microscopy | >1 µM |
| O=C1CCn2c(nc3c(c2=S)C2=C(CCC/C2=C\c2ccncc2)C(c2ccncc2)S3)S1 | KB | MTT | 40.4 µM |
| CCCCc1ccc(Nc2ncnc3c2cnn3-c2ccccc2Cl)cc1 | HUH 9B |  | >50 µM |
| CCn1c(-c2ccccc2)c(C)c(=O)c2cc(C(C)C)ccc21 | HELA-OHIO | MTT | 11 µg/mL |
| CCc1nc(CCC(=O)O)cnc1CCC(=O)O | A-594 | MTT | >40 µg/mL |
| CCn1c2c(c(=O)c3cc(C(C)C)ccc31)Cc1ccccc1-2 | HELA-OHIO | MTT | >4 µg/mL |
| CC1(C)NCCn2c1nc(C(=O)NCc1ccc(F)cc1)c(O)c2=O | MT-4 | microscopy | >1 µM |
| COc1cnc(-c2cncs2)c2[nH]cc(C(=O)C(=O)N3CCN(C(=O)c4ccccc4)CC3)c12 | HeLa | trypan blue | >100 µM |
| C=CCCN(Cc1cc(OC)cc(OC)c1)C(=O)CC(C)=O | RAJI |  | <7.5 µM |
| CC(C)C[C@@H]1NC(=O)[C@H](Cc2c[nH]c3ccccc23)NC(=O)[C@@H](CCCNC(N)=O)NC(=O)[C@H](CC(N)=O)NC(=O)[C@H](C(C)C)NC(=O)[C@@H](CC(C)C)NC1=O | Colorectal carcinoma | MTT | >30 µM |
| NS(=O)(=O)c1ccc(CCNc2ncnc3c2CNN3c2ccccc2Br)cc1 | HUH 9B |  | >50 µM |
| C1C[N+]2(CCN1)CC[N+]1(CCNCC1)CC2 | L929 |  | >672.7 µg/mL |
| O=c1c2ncn(COCCO)c2nc2[nH]c(-c3ccc(F)cc3)cn12 | OST TK- |  | 92 µg/mL |
| COc1cnc(-n2cc(C)cn2)c2[nH]cc(C(=O)C(=O)N3CCN(C(=O)c4ccccc4)CC3)c12 | HeLa | trypan blue | >100 µM |
| Cc1ccc(-n2ncc3c(NC(=O)Nc4ccc(Br)cc4)ncnc32)c(C)c1 | HUH 9B |  | 36 µM |
| CCOC(=O)[C@@]1(C)CC[C@]2(C)CC[C@]3(C)C(=CC(=O)[C@@H]4[C@@]5(C)CC/C(=N\OCc6cccc(Cl)c6)C(C)(C)[C@@H]5CC[C@]43C)[C@@H]2C1 | CT26 | MTT | 96.28 µM |
| Cc1cc2c(c(C)c1OCC(C)C)c(=O)c(C)c(-c1ccccc1)n2C | HeLa S3 | MTT | >5 µg/mL |
| CCOC(=O)C1=C(CN2CC(F)(F)[C@@H]3[C@H]2CON3CCCC(C)(O)C(=O)O)NC(c2nccs2)=N[C@H]1c1cccc(F)c1C | HepG2.2.15 | WST / absorbance | 100 µM |
| CCOC(=O)[C@@]1(C)CC[C@]2(C)CC[C@]3(C)C(=CC(=O)[C@@H]4[C@@]5(C)CC/C(=N\OCc6cccc(Br)c6)C(C)(C)[C@@H]5CC[C@]43C)[C@@H]2C1 | CT26 | MTT | >100 µM |
| Cc1ccc(-n2ncc3c(Nc4ccc(S(=O)(=O)Nc5nccs5)cc4)ncnc32)c(C)c1 | HUH 9B |  | >50 µM |
| NC(=S)Nc1cccc(OCCCCCOc2ccccc2-c2ccc(F)cc2)c1 | Ava5-EG(delta4AB)SEAP | MTS | >1 µM |
| CC(C)N(Cc1ccccc1)C(=O)c1ccc(-c2ccc3c(c2)OCO3)cc1 | BJ |  | <13.5 µM |
| CN1C(=O)CN2CCn3c(nc(C(=O)NCc4ccc(F)cc4)c(O)c3=O)C1C2 | MT-4 | microscopy | >1 µM |
| NC(=S)Nc1cccc(OCCCCCOc2cccc(-c3ccccc3)c2)c1 | Ava5-EG(delta4AB)SEAP | MTS | >1 µM |
| O=c1sc2nc3c(c(=S)n2/c1=C/c1ccc(Cl)cc1)C1=C(CCC/C1=C\c1ccncc1)C(c1ccncc1)S3 | MGC-803 | MTT | 35.2 µM |
| CCOC(=O)C1=C(CN2CC(F)(F)[C@@H]3[C@H]2CON3C[C@@H](F)C(C)(C)C(=O)O)NC(c2nccs2)=N[C@@]1(C)c1cccc(F)c1C | HepG2.2.15 | WST / absorbance | 25 µM |
| O=C(CCBr)N1CC[N+]2(CC1)CC[N+]1(CCN(C(=O)CCBr)CC1)CC2 | K562 |  | >353.2 µg/mL |
| CCOC(=O)C1=C(CN2CC(F)(F)[C@H]3[C@@H]2CON3C[C@@H](O)C(C)(C)C(=O)O)NC(c2nc(C)cs2)=N[C@H]1c1cccc(F)c1C | HepG2.2.15 | WST / absorbance | 31.5 µM |
| O=c1cc(-c2cccc(N3CCN(C(c4ccccc4)c4ccc(Cl)cc4)CC3)c2)c2cccnc2n1O | HeLa |  | <100 µM |
| CCOC(=O)CC(=O)NCCc1ccc(OC)c(OC)c1 | RAJI |  | <7.5 µM |
| O=c1c2ncn(COCCO)c2nc2[nH]c(-c3ccccc3)c(Cc3ccccc3)n12 | OST TK- |  | 252 µg/mL |
| CCOC(=O)c1cnc(SC)nc1N1CC[N+]2(CC1)CC[N+]1(CCN(c3nc(SC)ncc3C(=O)OCC)CC1)CC2 | GMK |  | >290 µg/mL |
| COc1ccc(-c2c(C)c(=O)c3c(C)c(OCC(C)C)ccc3n2C)cc1C | HeLa S3 | MTT | >4 µg/mL |
| N#C/C(=C(\N)N1CC[N+]2(CC1)CC[N+]1(CCN(/C(N)=C(/C#N)[N+](=O)[O-])CC1)CC2)[N+](=O)[O-] | L929 |  | >328.1 µg/mL |
| Cc1ccc(F)c(NC(=O)NCCc2ccc3c(n2)NCCC3)c1 | PBMC |  | 16.8 µM |
| CCOC(=O)[C@@]1(C)CC[C@]2(C)CC[C@]3(C)C(=CC(=O)[C@@H]4[C@@]5(C)CC/C(=N\OCc6ccc(C(F)(F)F)cc6)C(C)(C)[C@@H]5CC[C@]43C)[C@@H]2C1 | K562 | MTT | 16.14 µM |
| NC(=S)Nc1cccc(OCCCOc2ccccc2)c1 | Ava5-EG(delta4AB)SEAP | MTS | >1 µM |
| CCn1c(-c2ccccc2)c(C)c(=O)c2cc(NCC(C)C)ccc21 | HeLa S3 | MTT | >5 µg/mL |
| Cc1ccc(-n2ncc3c(Nc4cccc(-c5cnco5)c4)ncnc32)c(C)c1 | HUH 9B |  | 18 µM |
| O=[N+]([O-])c1c(Cl)nc(C(F)(F)F)nc1N1CC[N+]2(CC1)CC[N+]1(CCN(c3nc(C(F)(F)F)nc(Cl)c3[N+](=O)[O-])CC1)CC2 | L929 |  | >261 µg/mL |
| COc1ccc(-c2[nH]c3nc4c(ncn4COCCO)c(=O)n3c2C)cc1 | OST TK-/HSV-1 TK+ |  | 0.012 µg/mL |
| NCc1cccc(-c2cccc(-c3ccnc4c3c(O)cc(=O)n4O)c2)c1 | HeLa |  | <100 µM |
| CCn1c(-c2cccc(F)c2)c(C)c(=O)c2cc(C(C)C)ccc21 | HeLa S3 | MTT | >4 µg/mL |
| Cn1nnnc1CN1CCn2c(nc(C(=O)NCc3ccc(F)cc3)c(O)c2=O)C1(C)C | MT-4 | microscopy | >1 µM |
| CCOC(=O)CNC(=O)NCCc1ccc2c(n1)NCCC2 | PBMC |  | 50 µM |
| CCOC(=O)c1c(O)c2cc(C(=O)NCc3cccc(OC)c3)cnc2n(O)c1=O | HeLa |  | <100 µM |
| CCn1c(-c2ccccc2)c(C)c(=O)c2cc(N3CCOCC3)ccc21 | HeLa S3 | MTT | >50 µg/mL |
| NC(=S)Nc1cccc(OCCCCCOc2ccncc2)c1 | Ava5-EG(delta4AB)SEAP | MTS | >1 µM |
| Cc1cccc(C(C)C)c1NC(=O)NCCc1ccc2c(n1)NCCC2 | PBMC |  | 10 µM |
| Cc1nc(N2CC[N+]3(CC2)CC[N+]2(CCN(c4nc(C)[nH]c(=O)c4[N+](=O)[O-])CC2)CC3)c([N+](=O)[O-])c(=O)[nH]1 | GMK |  | >331.4 µg/mL |
| CC(C)C[C@@H]1NC(=O)[C@H](Cc2c[nH]c3ccccc23)NC(=O)[C@@H](CCCCN)NC(=O)[C@H](CC(N)=O)NC(=O)[C@H](C(C)C)NC(=O)[C@@H](CC(C)C)N(C)C1=O | Lung carcinoma cells | MTT | >30 µM |
| NC(=S)Nc1cccc(OCCCCCNc2cccc3ccccc23)c1 | Ava5-EG(delta4AB)SEAP | MTS | >1 µM |
| CCCCC(=O)OC1CC(OC(C)C(C)C(O)C(C)C(O)C(C)C2OC(=O)/C=C/CC(O)CC(O)CC(O)CCC(C)C(O)C[C@@]3(O)O[C@H](CC(O)CC(OC(=O)CC(=O)O)CCCC(O)C4OC4C2C)C[C@H](O)[C@H]3O)OC(C)C1O | P-388 |  | >100 µg/mL |
| CC(C)C[C@@H]1NC(=O)[C@H](Cc2c[nH]c3ccccc23)NC(=O)C(C[C@@H](C)[C@H](N)C(=O)O)NC(=O)[C@H](CC(N)=O)NC(=O)[C@H](C(C)C)NC(=O)[C@@H](CC(C)C)NC1=O | Lung carcinoma cells | MTT | >30 µM |
| Cc1cc2c(O[C@H]3O[C@H](CO)[C@@H](O)[C@H]3O)ccc(O)c2c(=O)o1 | A-594 | MTT | >40 µg/mL |
| CC1(C)c2nc(C(=O)NCc3ccc(F)cc3)c(O)c(=O)n2CN1Cc1cccnc1 | MT-4 | microscopy | >1 µM |
| Clc1nnnc2c1C1=C(CCC/C1=C\c1ccncc1)C(c1ccncc1)S2 | MCF-7 | MTT | 13.1 µM |
| NC(=S)Nc1cccc(OCCCCCCc2cccc3ccccc23)c1 | Ava5-EG(delta4AB)SEAP | MTS | >1 µM |
| O=C(Cc1ccccc1Cl)NCCc1ccc2c(n1)NCCC2 | PBMC |  | 50 µM |
| NC(=O)c1[nH]c2c(c1N)C1=C(CCC/C1=C\c1ccncc1)C(c1ccncc1)S2 | CNE-2 | MTT | >50 µM |
| CC[C@@H](CCC[C@@H](CO)N(CC(C)C)S(=O)(=O)c1ccc(CO)cc1)NC(=O)[C@H](Cc1ccccc1Cl)NC(=O)OC | T lymphoid cells | microscopy | >10 µM |
| CCOC(=O)C1=C(CN2CC(F)(F)[C@H]3[C@@H]2CCN3C[C@@H](O)C(C)(C)C(=O)O)NC(c2nccs2)=N[C@@H]1c1cccc(F)c1F | HepG2.2.15 | WST / absorbance | >25 µM |
| CC(=O)c1cccc(-c2cccc(-c3cc(=O)n(O)c4ncccc34)c2)c1 | HeLa |  | <100 µM |
| COc1cnc(-c2ncco2)c2[nH]cc(C(=O)C(=O)N3CCN(C(=O)c4ccccc4)CC3)c12 | HeLa | trypan blue | ≤100 µM |

A second listing of 5 rows from above:

SMILES | cell line | read by | result
O=c1c2ncn(COCCO)c2nc2[nH]c(-c3ccccc3)c(Cc3ccccc3)n12 | OST TK- |  | 252 µg/mL
NC(=O)c1[nH]c2c(c1N)C1=C(CCC/C1=C\c1ccncc1)C(c1ccncc1)S2 | CNE-2 | MTT | >50 µM
NC(=S)Nc1cccc(OCCCOc2ccccc2)c1 | Ava5-EG(delta4AB)SEAP | MTS | >1 µM
CC(C)C[C@@H]1NC(=O)[C@H](Cc2c[nH]c3ccccc23)NC(=O)[C@@H](CC2CCCCC2)NC(=O)[C@H](CCCCN)NC(=O)[C@H](C(C)C)NC(=O)[C@@H](CC(C)C)NC1=O | Colorectal carcinoma | MTT | >30 µM
NC(=S)Nc1cccc(OCCCCCOc2ccccc2-c2ccc(F)cc2)c1 | Ava5-EG(delta4AB)SEAP | MTS | >1 µM